Values from PubChem BioAssay AID624099 (ICCB-Longwood, 2012)

Test: 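Knock-downs relieving repression by E2 of an HPV18 LCR luciferase reporter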 (primary screen)
System: human C33A cervical carcinoma cells (HPV-negative) stably expressing BPV1 E2 and an HPV18 LCR luciferase reporter
Reagent: siRNA pool against human genes, 40 nM
Duration: 72 h
Detection: 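HPV18 LCR reporter light per well, converted to plate-wise z-scores that exclude control wells, and averaged over triplicate plates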
Reading the numbers: mean z-score and z-score: higher = stronger reporter signal, weaker E2 silencing
Hit rule: 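Mean z ≥ 2 together with z ≥ 2 in two or more of the three replicates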
Here is an unselected part of about 21,000 reagents tested. Of all reagents, 497 (2.4%) got an active call. 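Higher z means weaker E2 silencing; only reporter increases were scored, and knock-downs that hurt cell survival may mask genuine repressor factors.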 Unmarked entries are inactive. The numbers tell different reagents against one gene apart.

no.	gene	reagent no.	mean z-score	z-score, replicate A	z-score, replicate B	z-score, replicate C
1	SLC30A3	1	-0.61	-0.68	-0.39	-0.76
2	H3-3A	1	-0.71	-0.64	-0.78	-0.7
3	RPL31P4	1	0.2	0.18	0.31	0.1
4	HMGN4	1	-0.75	-0.31	-1.02	-0.92
5	LRIF1	1	-0.44	-0.12	-0.81	-0.39
6	TYROBP	1	0.86	0.63	0.76	1.19
7	SNX16	1	-0.55	-0.76	-0.43	-0.45
8	LOC391707	1	0.22	0.33	0.17	0.16
9	IGF2BP3	1	0.02	0.03	0.05	-0.03
10	PRF1	1	1.61	1.38	1.4	2.05
11	LOC389286 (retired record)	1	1.58	1.84	1.46	1.45
12	CYGB	1	2	1.96	2.04	1.99
13	VMA21	1	0.66	0.66	0.81	0.52
14	ZMAT5	1	-1.16	-1.36	-1.43	-0.7
15	RPL35P10	1	-0.66	-0.84	-0.75	-0.4
16	PECAM1	1	0.28	0.47	0.24	0.13
17	PGK1	1	-0.3	-0.62	0.38	-0.66
18	ZNF410	1	-1.2	-0.86	-1.12	-1.62
19	PRR14	1	-0.86	-1.01	-0.8	-0.77
20	MOB4	1	-0.71	-0.66	-0.71	-0.76
21	RUMY4	1	-0.6	-0.44	-0.57	-0.8
22	LOC402720 (retired record)	1	0.54	0.35	0.26	1.03
23	IRS4	1	-0.42	-0.63	-0.42	-0.2
24	LINC02796	1	0.13	0.79	-0.26	-0.13
25	HSF2BP	1	1.11	1.21	0.87	1.24
26	OR4F15	1	-1.16	-0.68	-1.23	-1.55
27	CAPN5	1	1.74	2.03	1.5	1.68

Copied from above for reference:
no.	gene	reagent no.	mean z-score	z-score, replicate A	z-score, replicate B	z-score, replicate C
16	PECAM1	1	0.28	0.47	0.24	0.13
17	PGK1	1	-0.3	-0.62	0.38	-0.66
18	ZNF410	1	-1.2	-0.86	-1.12	-1.62
19	PRR14	1	-0.86	-1.01	-0.8	-0.77

Further entries follow:
no.	gene	reagent no.	mean z-score	z-score, replicate A	z-score, replicate B	z-score, replicate C
28	QKI	1	-0.59	-0.67	-0.85	-0.27
29	SDR39U1	1	-0.18	-0.08	-0.32	-0.13
30	MSH4	1	-0.13	-0.05	-0.27	-0.07
31	FAM222B	1	-0.74	-1.09	-0.59	-0.55
32	KHDRBS3	1	0.29	0.16	0.25	0.46
33	TRIM71	1	0.07	0.18	0	0.01
34	RBP5	1	0.69	0.45	0.99	0.62
35	FA2H	1	-0.42	-0.21	-0.52	-0.52
36	TAF1A	1	0.63	0.62	0.8	0.47
37	IFT25	1	-0.3	-0.27	-0.09	-0.55
38	OLFML1	1	0.12	-0.11	0.08	0.39
39	GLYATL2	1	-1.54	-1.76	-1.62	-1.25
40	LOC391784 (retired record)	1	-0.69	-0.05	-1.11	-0.9
41	ASAP3	1	1.54	1.47	1.57	1.57
42	DHX15	1	-0.97	-1.02	-0.84	-1.03
43	SDC3	1	-0.19	-0.43	-0.09	-0.04
44	PDCL	1	0.26	0.7	0.08	0.01
45	CDC37P1	1	0.23	-0.04	0.72	0.02
46	SLC29A4	1	-0.05	-0.23	0.13	-0.13
47	CNN3-DT	1	1.38	1.2	1.45	1.48
48	CD8A	1	-0.16	-0.03	-0.12	-0.34
49	XRCC6P2	1	0.99	0.44	1.19	1.34
50	FBXO42	1	0.21	0.25	0.26	0.13
51	PLEKHM2	1	1.12	1.43	0.55	1.37
52	LOC157273	1	-0.28	-0.51	-0.15	-0.17
53	TTC7A	1	-0.34	-0.42	-0.5	-0.09
54	C20orf203	1	-0.17	-0.43	0.08	-0.16
55	TOR1AIP2	1	0.81	0.71	0.78	0.95
56	TOR1AIP2	2	-0.13	0.36	-0.75	0.01
57	MAGEH1	1	0.12	0.19	0.12	0.04
58	NIM1K	1	1.42	1.57	1.1	1.6
59	FARP2	1	-0.59	-0.51	-0.84	-0.42
60	CCNQ	1	-0.44	-0.22	-0.74	-0.36
61	PRICKLE1	1	0.37	1.55	-1.28	0.83
62	TCL6	1	0.03	-0.39	0.17	0.32
63	TNFRSF12A	1	0.34	0.17	0.43	0.41
64	FERMT3	1	-0.02	-0.02	0.01	-0.05
65	H4C4	1	0.29	-0.1	0.46	0.52
66	LINC02899	1	0.49	0.8	0.46	0.22
67	TBCCD1	1	-1.22	-1.13	-1.43	-1.11
68	AADACP1	1	-1	-1.01	-1.14	-0.85
69	ADI1	1	-1.16	-1.22	-1.02	-1.24
70	SLC12A7	1	-0.31	-0.17	-0.21	-0.55
71	COL18A1-AS1	1	-0.16	-0.09	-0.01	-0.38
72	TREML4	1	1.26	1	1.31	1.47
73	OR11G2	1	2.06 (active)	2.27	2.08	1.84
